Pooled drug test results. Numbers come from NIAID ChemDB, via PubChem.

All rows: growth or infection tests; organism: HIV-1; read by: p24; measure: EC95

Conditions beyond the fields shown may differ between rows. An empty or dashed field is not shown. ECn is the concentration giving n% inhibition of infection, replication or growth.

C=CCN(C(=O)OCc1ccccc1)C1CCN(CC[C@](CO)(CN(C)S(=O)(=O)c2ccccc2)c2ccccc2)CC1 ; strain: YU-2 (M-tropic) ; cells: PBMC ; result: ~0.055 µM
CCc1cc(CCc2nc3c(Cl)ccc(Cl)c3o2)c(=O)[nH]c1C ; strain: IIIB ; cells: H9 ; result: 0.025 µM
CCCN(C(=O)OCc1cccc(C)c1)C1CCN(CCC(CN(C)S(=O)(=O)c2ccccc2)c2ccccc2)CC1 ; strain: YU-2 (M-tropic) ; cells: PBMC ; result: 1 µM
Cc1ccccc1CNC(=O)[C@H]1N(C[C@@H](O)C[C@@H](Cc2ccccc2)C(=O)N[C@H]2c3ccccc3OC[C@H]2O)CSC1(C)C ; cells: MT-4 ; result: 0.25 µM
C=CCN(C(=O)OCc1ccc([N+](=O)[O-])cc1)C1CCN(CCC(CO)(CN(C)S(=O)(=O)c2ccccc2)c2ccccc2)CC1 ; strain: YU-2 (M-tropic) ; cells: PBMC ; result: ≤0.008 µM
C=CCN(C(=O)NCc1ccc([N+](=O)[O-])cc1)C1CCN(CC[C@H](CN(C)S(=O)(=O)c2ccccc2)c2ccccc2)CC1 ; strain: YU2 ; cells: PBMC ; result: 0.25 µM
CCc1cc(CCc2nc3ccccc3o2)c(=O)[nH]c1C ; strain: IIIB ; cells: MT-4 ; result: 0.05 µM
Cc1nnc(C[C@H](C[C@H](O)CN2CCN(Cc3ccc(-c4ccc(Cl)cc4)o3)C[C@H]2C(=O)NCC(F)(F)F)C(=O)N[C@H]2c3ccccc3OC[C@H]2O)o1 ; strain: V-18 Clinical isolate ; cells: MT-4 ; mutations: PR-L10I M36I N37D M46I R57K L63P A71V G73S I84V L90M I93L ; result: 0.063 µM
CC(C)=CCN1Cc2cc(Cl)cc3[nH]c(=S)n(c23)C[C@@H]1C ; cells: MT-4 ; result: 0.8 µM
CCCN(C(=O)OCc1ccc([N+](=O)[O-])cc1)C1CCN(CC[C@](CO)(CN(C)S(=O)(=O)c2ccccc2)c2ccccc2)CC1 ; strain: YU-2 (M-tropic) ; cells: PBMC ; result: 0.1 µM
COc1cncc(-c2cnc(C(C)(C)N3CCN(C[C@@H](O)C[C@@H](Cc4nnc(C)o4)C(=O)N[C@H]4c5ccccc5OC[C@H]4O)[C@H](C(=O)NCC(F)(F)F)C3)o2)c1 ; strain: NL4-3 WT ; cells: MT-4 ; result: >1 µM
Cc1ccncc1-c1ccc(C[C@H](C[C@H](O)CN2CCN(Cc3ncc(-c4ccc(Cl)cc4)o3)C[C@H]2C(=O)NCC(F)(F)F)C(=O)N[C@H]2c3ccccc3OC[C@H]2O)o1 ; strain: NL4-3 ; cells: MT-4 ; result: <0.0078 µM
O=C(N[C@H]1c2ccccc2OCC1O)[C@H](Cc1cccnc1)C[C@H](O)CN1CCN(Cc2ccc(-c3ccccc3)o2)C[C@H]1C(=O)NCC(F)(F)F ; strain: V-18C Clinical isolate ; cells: MT-4 ; mutations: PR-L10I M36I N37D M46I R57K L63P A71V G73S I84V L90M I93L ; result: ≤0.008 µM
CCN(C(=O)NC)C1CCN(CCC(CN(C)S(=O)(=O)c2ccccc2)c2ccccc2)CC1 ; strain: YU2 ; cells: PBMC ; result: 0.12 µM
CCN(C(=O)OCc1ccccc1)C1CCN(CC[C@](C)(CN(C)S(=O)(=O)c2ccccc2)c2ccccc2)CC1 ; strain: YU-2 (M-tropic) ; cells: PBMC ; result: ~0.5 µM
CC(C)(c1ncc(-c2ccc(Cl)cc2)o1)N1CCN(C[C@@H](O)C[C@@H](Cc2cc3ccncc3o2)C(=O)N[C@H]2c3ccccc3OC[C@H]2O)[C@H](C(=O)NCC(F)(F)F)C1 ; strain: 4X (PR M46I L63P V82T I84V) ; cells: MT-4 ; mutations: PR-M46I L63P V82T I84V ; result: <0.0078 µM
CCCN(C(=O)Nc1ccccc1)C1CCN(CCC(CN(C)S(=O)(=O)c2ccccc2)c2ccccc2)CC1 ; strain: YU2 ; cells: PBMC ; result: 6 µM
C#CCN(C(=O)OCc1ccccc1)C1CCN(CCC(C)(CN(C)S(=O)(=O)c2ccccc2)c2ccccc2)CC1 ; strain: YU-2 (M-tropic) ; cells: PBMC ; result: 1.5 µM
C=CCN(C(=O)OCc1ccc([N+](=O)[O-])cc1)C1CCN(CC[C@H](CN(C)S(=O)(=O)c2ccccc2)c2ccccc2)CC1 ; strain: YU2 ; cells: PBMC ; result: 0.2 µM
CC(C)(C)NC(=O)[C@@H]1CN(S(C)(=O)=O)CCN1C[C@@H](O)C[C@@H](Cc1ccccc1)C(=O)N[C@H]1c2ccccc2C[C@H]1O ; strain: IIIB ; cells: MT-4 ; result: 0.4 µM
O=C(NCc1ccc(F)cc1)c1nc(-c2cccs2)[nH]c(=O)c1O ; cells: MT-4 ; setting: 10% FBS ; result: >10 µM
Cc1ccncc1-c1ccc(C[C@H](C[C@H](O)CN2CCN(Cc3ccc(-c4ccc(Cl)cc4)o3)C[C@H]2C(=O)NCC(F)(F)F)C(=O)N[C@H]2c3ccccc3OC[C@H]2O)o1 ; strain: 4X (PR M46I L63P V82T I84V) ; cells: MT-4 ; mutations: PR-M46I L63P V82T I84V ; result: 0.0313 µM
CCCc1nnc(C[C@H](C[C@H](O)CN2CCN(C(C)(C)c3ncc(-c4cncc(OC)c4)o3)C[C@H]2C(=O)NCC(F)(F)F)C(=O)N[C@H]2c3ccccc3OC[C@H]2O)o1 ; strain: V-18 Clinical isolate ; cells: MT-4 ; mutations: PR-L10I M36I N37D M46I R57K L63P A71V G73S I84V L90M I93L ; result: >1 µM
O=C(NCc1ccccc1)c1nc(-c2ccccc2)[nH]c(=O)c1O ; cells: MT-4 ; setting: 50% human serum ; result: >10 µM
Cc1nnc(C[C@H](C[C@H](O)CN2CCN(C(C)(C)c3ncc(-c4ccc(F)cc4)o3)C[C@H]2C(=O)NCC(F)(F)F)C(=O)N[C@H]2c3ccccc3OC[C@H]2O)o1 ; strain: K-60 Clinical isolate ; cells: MT-4 ; mutations: PR-L10I M46I I54V Q58E L63P I64V V77I V82F I84V L90M I93L ; result: 0.125 µM
C=CCN(C(=O)Cc1ccc([N+](=O)[O-])cc1)C1CCN(CCC(CN(C)S(=O)(=O)c2ccccc2)c2ccccc2)CC1 ; strain: YU2 ; cells: PBMC ; result: 0.05 µM
CC(C)(c1ncc(-c2ccc(Cl)cc2)o1)N1CCN(C[C@@H](O)C[C@@H](Cc2cc3c(Cl)cncc3s2)C(=O)N[C@H]2c3ccccc3OC[C@H]2O)[C@H](C(=O)NCC(F)(F)F)C1 ; strain: NL4-3 ; cells: MT-4 ; result: <0.0078 µM
CC(C)(C)NC(=O)[C@@H]1C[C@@H]2CCCC[C@@H]2CN1C[C@@H](O)[C@H](Cc1ccccc1)NC(=O)[C@H](CC(N)=O)NC(=O)c1ccc2ccccc2n1 ; strain: NL4-3 ; cells: MT-4 ; mutations: PR-L10R L63P ; result: 0.025 µM
O=C(N[C@H]1c2ccccc2OC[C@H]1O)[C@H](Cc1cccnc1)C[C@H](O)CN1CCN(Cc2ccn(-c3ccc(F)c(F)c3F)c2)C[C@H]1C(=O)NCC(F)(F)F ; strain: NL4-3 WT ; cells: MT-4 ; result: ≤0.008 µM
CC(C)(c1ncc(-c2ccc(Cl)cc2)o1)N1CCN(C[C@@H](O)C[C@@H](Cc2nnc(-c3ccccc3)o2)C(=O)N[C@H]2c3ccccc3OC[C@H]2O)[C@H](C(=O)NCC(F)(F)F)C1 ; strain: Q-60 Clinical isolate ; cells: MT-4 ; mutations: PR-L10I N37S R41K M46I I54V I62V L63P A71V V77I V82A L90M I93L ; result: 0.016 µM
O=C1N(Cc2ccc(CO)cc2)[C@H](Cc2ccccc2)[C@H](O)[C@@H](O)[C@@H](Cc2ccccc2)N1Cc1ccc(CO)cc1 ; strain: NL4-3 ; cells: MT-4 ; mutations: PR-I84V ; result: 3 µM
CN(C)Cc1nc(C(=O)NCc2ccc(F)cc2)c(O)c(=O)[nH]1 ; cells: MT-4 ; setting: 50% human serum ; result: >1 µM
CCCN(C(=O)OCc1ccccc1)C1CCN(CCC(CN(C)S(=O)(=O)c2ccccc2)c2ccccc2)CC1 ; strain: YU-2 (M-tropic) ; cells: PBMC ; result: 12.5 µM
CCc1cc(CCc2nc3c(Cl)ccc(Cl)c3o2)c(=S)[nH]c1C ; strain: A17 ; cells: H9 ; mutations: RT-K103N Y181C ; result: 0.8 µM
O=C(NCc1ccc(F)cc1)c1nc[nH]c(=O)c1O ; cells: MT-4 ; setting: 10% FBS ; result: >10 µM
O=C(N[C@H]1c2ccccc2OC[C@H]1O)[C@H](Cc1nnc(-c2ccccc2)o1)C[C@H](O)CN1CCN(Cc2ccc(-c3ccc(Cl)cc3)o2)C[C@H]1C(=O)NCC(F)(F)F ; strain: K-60 Clinical isolate ; cells: MT-4 ; mutations: PR-L10I M46I I54V Q58E L63P I64V V77I V82F I84V L90M I93L ; result: ≤0.008 µM
CCc1cc(CCc2nc3c(F)ccc(F)c3o2)c(=S)[nH]c1C ; strain: IIIB ; cells: MT-4 ; result: 0.15 µM

The last 5 rows once more:

| compound | strain | cells | mutations | setting | result |
|---|---|---|---|---|---|
| CCCN(C(=O)OCc1ccccc1)C1CCN(CCC(CN(C)S(=O)(=O)c2ccccc2)c2ccccc2)CC1 | YU-2 (M-tropic) | PBMC |  |  | 12.5 µM |
| CCc1cc(CCc2nc3c(Cl)ccc(Cl)c3o2)c(=S)[nH]c1C | A17 | H9 | RT-K103N Y181C |  | 0.8 µM |
| O=C(NCc1ccc(F)cc1)c1nc[nH]c(=O)c1O |  | MT-4 |  | 10% FBS | >10 µM |
| O=C(N[C@H]1c2ccccc2OC[C@H]1O)[C@H](Cc1nnc(-c2ccccc2)o1)C[C@H](O)CN1CCN(Cc2ccc(-c3ccc(Cl)cc3)o2)C[C@H]1C(=O)NCC(F)(F)F | K-60 Clinical isolate | MT-4 | PR-L10I M46I I54V Q58E L63P I64V V77I V82F I84V L90M I93L |  | ≤0.008 µM |
| CCc1cc(CCc2nc3c(F)ccc(F)c3o2)c(=S)[nH]c1C | IIIB | MT-4 |  |  | 0.15 µM |